Measured values as given in publication PMC7584437 (Structure (London, England : 1993), 2020).

Biological target: SARS-CoV-2 3CL M^pro (Severe acute respiratory syndrome coronavirus 2, UniProt P0DTD1)
Test: biochemical

## CCCC[C@H](NC(=O)[C@@H]1[C@@H]2[C@H](CN1C(=O)[C@@H](NC(=O)NC1(CS(=O)(=O)C(C)(C)C)CCCCC1)C(C)(C)C)C2(C)C)C(=O)C(=O)NC1CC1 [narlaprevir]
  IC50: 5.1 µM
